{"source": "patent US11499964B2", "about": "“Assay to diagnose and treat disorders of the alternative pathway of complement activation” (THE JOHNS HOPKINS UNIVERSITY, priority 2015, dated 2022)", "molecules": {"B1": {"name": "eculizumab (antibody, chains of the INN, looked up)", "heavy": "QVQLVQSGAEVKKPGASVKVSCKASGYIFSNYWIQWVRQAPGQGLEWMGEILPGSGSTEYTENFKDRVTMTRDTSTSTVYMELSSLRSEDTAVYYCARYFFGSSPNWYFDVWGQGTLVTVSSASTKGPSVFPLAPCSRSTSESTAALGCLVKDYFPEPVTVSWNSGALTSGVHTFPAVLQSSGLYSLSSVVTVPSSNFGTQTYTCNVDHKPSNTKVDKTVERKCCVECPPCPAPPVAGPSVFLFPPKPKDTLMISRTPEVTCVVVDVSQEDPEVQFNWYVDGVEVHNAKTKPREEQFNSTYRVVSVLTVLHQDWLNGKEYKCKVSNKGLPSSIEKTISKAKGQPREPQVYTLPPSQEEMTKNQVSLTCLVKGFYPSDIAVEWESNGQPENNYKTTPPVLDSDGSFFLYSRLTVDKSRWQEGNVFSCSVMHEALHNHYTQKSLSLSLG", "light": "DIQMTQSPSSLSASVGDRVTITCGASENIYGALNWYQQKPGKAPKLLIYGATNLADGVPSRFSGSGSGTDFTLTISSLQPEDFATYYCQNVLNTPLTFGQGTKVEIKRTVAAPSVFIFPPSDEQLKSGTASVVCLLNNFYPREAKVQWKVDNALQSGNSQESVTEQDSKDSTYSLSSTLTLSKADYEKHKVYACEVTHQGLSSPVTKSFNRGEC", "modifications": "in PNH patient serum"}}, "test_system": "PIGA-null TF-1 cells", "assay": "Modified Ham test (WST-1 cell viability after serum exposure)"}
{"molecule": "B1", "values": [{"measurement": "modified Ham test result of acute Shiga-toxin associated HUS serum mixed with eculizumab containing serum", "value": "normalization of the modified Ham test results in all ratios"}]}
